Reference: patent publication US20050100554A1 (published 2005)

Biological target: T1, Human Papillomavirus 1a L2 (Human Papillomavirus 1a, UniProt P03105 1-507)
T1 construct: also called HPV 1a L2; cbe_252041
T1 sequence: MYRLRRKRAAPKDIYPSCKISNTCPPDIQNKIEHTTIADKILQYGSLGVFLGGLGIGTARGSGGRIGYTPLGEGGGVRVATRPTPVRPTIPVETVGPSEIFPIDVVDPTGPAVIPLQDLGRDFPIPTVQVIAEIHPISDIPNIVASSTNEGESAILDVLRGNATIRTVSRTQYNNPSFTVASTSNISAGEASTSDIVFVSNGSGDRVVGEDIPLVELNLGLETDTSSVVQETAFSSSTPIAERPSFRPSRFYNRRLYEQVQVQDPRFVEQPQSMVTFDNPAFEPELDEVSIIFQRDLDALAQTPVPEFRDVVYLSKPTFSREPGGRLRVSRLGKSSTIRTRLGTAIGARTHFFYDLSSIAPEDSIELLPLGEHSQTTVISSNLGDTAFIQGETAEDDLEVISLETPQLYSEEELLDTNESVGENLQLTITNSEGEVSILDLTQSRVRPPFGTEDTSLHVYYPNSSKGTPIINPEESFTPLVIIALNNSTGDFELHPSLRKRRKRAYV
Assay: Y2H; INT ID 450

B1: HSPE1 (other)
chain: not shown
notes: also called cbe_4268470
binding result: binds
